Pooled drug test results. Numbers come from NIAID ChemDB, via PubChem.

All rows: tests in culture; agent: HIV-1

Blank or dashed fields: not listed here. ECn: concentration that inhibits the pathogen or its effect by n%. Conditions beyond the fields shown may differ between rows. a–b is a range or a potency band.

SMILES,method,conditions,read-out,changes,strain or isolate,cells,result
CCc1c(Sc2ccccn2)n(COCc2ccccc2)c(=O)[nH]c1=O,cytopathic effect / XTT,,EC50,RT-D67N K70R L100I T215Y K219Q,4XAZT+L100I (RT D67N K70R L100I T215Y K219Q),CEM + CEM-SS,0.018 µM
Cc1cn([C@H]2C[C@H](N=[N+]=[N-])[C@@H](CO)O2)c(=O)[nH]c1=O,p24,,EC90,,IIIB,H9,1.575 µM
Cc1cc(C)c(-n2nnnc2SCC(=O)Nc2ccc(C(N)=O)cc2Cl)c(C)c1,p24,50% human serum,EC50,,,MT-4,<0.016 µM
Cc1cccc(C)c1Oc1ccnc(Nc2ccc(C#N)cc2)n1,MTT,,EC50,F227L + V106A,IIIB,MT-4,≥1.37 µM
COC(=O)N[C@@H](Cc1c[nH]c2ccccc12)C(=O)NCCCC[C@@H](CO)N(CC(C)C)S(=O)(=O)c1ccc(N)cc1,cytopathic effect / MTT,,EC50,,NL4-3,MT-4,0.152 µM
CN=C1CN=C(c2ccc[nH]2)c2cc(Cl)ccc2N1,p24,,EC50,,IIIB,PBMC,1.8 µM
Cc1cc(C#Cc2cccc(N)c2)cc(C)c1Oc1ccnc(NC2CCN(Cc3ccc(S(N)(=O)=O)cc3)CC2)n1,MTT,,EC50,Y188L,IIIB,MT-4,0.098 µM
Fc1cccc(Cl)c1C1SCc2nc3cc(C(F)(F)F)ccc3n21,cytopathic effect / MTT,,EC50,,IIIB,MT-4,>335 µM
Cc1cn([C@H]2C[C@H](N=[N+]=[N-])[C@@H](COP(=O)(O)OC[C@H]3CC[C@@H](n4cnc5c(N)ncnc54)O3)O2)c(=O)[nH]c1=O,RT activity,,EC90,,LAV,PBMC,0.0011 µM
Cc1occc1C(=S)Nc1ccc(Cl)c(/C=N/OC(C)(C)C)c1,cytopathic effect / XTT,,EC50,RT-Y188C,NL4-3 (RT Y188C),CEM + CEM-SS,0.4 µM
Cc1cc(C#Cc2cccc(N)c2)cc(C)c1Oc1ccnc(NC2CCN(Cc3ccc(C#N)cc3)CC2)n1,MTT,,EC50,Y181C,IIIB,MT-4,>0.261 µM
CC(C)c1cc2c(c(O)c1O)[C@@]1(C(=O)O)CCCC(C)(C)C1CC2,,,EC50,PR-L10I K43T M46L I54V L63P A71V V82A L90M Q92K,clinical isolate 1(MM MDR R5),PBMC,>1 µM
O=C(CCNC(=O)C(=O)/C=C(\O)c1cccn1Cc1ccc(F)cc1)OC[C@@H]1CC[C@H](n2ccc(=O)[nH]c2=O)O1,RT activity,,EC50,,IIIB,MT-4,>10 µM
Cc1cc(C#Cc2cccc(N)c2)cc(C)c1Oc1ccnc(NC2CCN(Cc3ccc(C(N)=O)cc3)CC2)n1,MTT,,EC50,,IIIB,MT-4,0.006 µM
CC(C)CN(C[C@@H](O)[C@H](Cc1ccccc1)NC(=O)[C@H](CC(N)=O)NC(=O)c1ccc2ccccc2n1)C(=O)NC(C)(C)C,p24,,EC50,,RF,MT-2,0.01 µM
Cc1cn([C@H]2C[C@H](N=[N+]=[N-])[C@@H](CO)O2)c(=O)[nH]c1=O,p24,,EC90,,HXB2,PBMC,0.26 µM
CC(C)(C)NC(=O)[C@@H]1C[C@@H]2CCCC[C@@H]2CN1C[C@@H](O)[C@H](Cc1ccccc1)NC(=O)[C@H](CC(N)=O)NC(=O)c1ccc2ccccc2n1,,,EC50,L10F M46I I54V V82A LPV resistant,NL4-3,MT-4,0.025 µM
CC(C)(C)OC(=O)N[C@@H](Cc1ccccc1)[C@H](O)CNC[C@@H](O)[C@H](Cc1ccc(OCC(=O)N2CCOCC2)cc1)NC(=O)OC(C)(C)C,p24,,EC50,,RF,MT-2,0.03 µM
Nc1ccn([C@H]2CC[C@@H](CO)O2)c(=O)n1,p24,,EC50,,RF,PBL,0.009 µM
Cc1cn([C@H]2C[C@H](N=[N+]=[N-])[C@@H](CO)O2)c(=O)[nH]c1=O,cytopathic effect / XTT,,EC50,,G691-2,CEM + CEM-SS,>100 µM
COc1ccc2c(c1)nc1n2C(c2c(Cl)cccc2Cl)SC1,cytopathic effect / MTT,,EC50,,IIIB,MT-4,>1.7 µM
Cc1cn([C@H]2C[C@H](N=[N+]=[N-])[C@@H](CO)O2)c(=O)[nH]c1=O,RT activity,,EC50,,LAV,PBMC,0.0039 µM
C/C=C/CSc1cc(NC(=S)c2ccsc2C)ccc1Cl,cytopathic effect / XTT,,EC50,,4XAZT+L100I,CEM + CEM-SS,1 µM
Cc1c(O)cccc1C(=O)N[C@@H](CSc1ccccc1)[C@H](O)CN1C[C@H]2CCCC[C@H]2C[C@H]1C(=O)NC(C)(C)C,p24,,EC50,,BaL,PBMC,0.0251 µM
Fc1ccc2c(c1)nc1n2C(c2c(Cl)cccc2Cl)SC1,cytopathic effect / MTT,,EC50,,IIIB,MT-4,>13.2 µM
Cc1cc(C)c(Oc2ncc(NC(=O)C(F)(F)F)c(Nc3ccc(C#N)cc3)n2)c(C)c1,MTT,,EC50,,IIIB,MT-4,0.0385 µM
Nc1ccn([C@H]2CO[C@@H](CO)S2)c(=O)n1,p24,,EC50,,IIIB,U-937,0.4 µM
CC(C)(C)NC(=O)[C@@H]1CN(Cc2cccnc2)CCN1C[C@@H](O)C[C@@H](Cc1ccccc1)C(=O)N[C@H]1c2ccccc2C[C@H]1O,cytopathic effect / MTT,,EC50,PR-V82F I84V,RF2802 (PR-V82F I84V),MT-4,0.134 µM
Cc1cn([C@H]2C[C@H](N=[N+]=[N-])[C@@H](CO)O2)c(=O)[nH]c1=O,,,EC50,,A018A,PBMC,0.023–0.03 µg/mL
Fc1cccc(F)c1C1OCc2nc3ccccc3n21,cytopathic effect / MTT,,EC50,RT-K103N,TIBO R82150-resistant (RT K103N),CEM,≥13.85 µM
Cc1ccnc2c1NC(=O)c1cccnc1N2C1CC1,cytopathic effect / XTT,,EC50,RT-V106I,NL4-3 (RT V106I),CEM + CEM-SS,>2 µM
Cc1cc(C)c(-n2nnnc2SCC(=O)Nc2ccc(S(N)(=O)=O)cc2)c(C)c1,p24,10% FBS,EC50,,,MT-4,<1.25 µM
N#Cc1ccc(Nc2nc(Oc3c(Cl)cc(Cl)cc3Cl)ncc2NC(=O)C(F)(F)F)cc1,MTT,,EC50,,RES056,MT-4,23.65 µM
NS(=O)(=O)c1ccc(NC(=O)CSc2nnnn2-c2cccc(Cl)c2Cl)c(Cl)c1,p24,50% human serum,EC50,,,MT-4,<0.25 µM
O=[N+]([O-])c1ccccc1S(=O)(=O)c1cccc2c1NCCC2,XTT,,EC50,,IIIB,CEM + CEM-SS,3 µM
Cc1ccnc2c1NC(=O)c1cccnc1N2C1CC1,cytopathic effect / XTT,,EC50,RT-A98G V108I,IIIB,CEM + CEM-SS,0.61 µM
COC(=O)N[C@H](C(=O)N[C@@H](Cc1ccccc1)[C@@H](O)CN(Cc1ccc(-c2ccccn2)cc1)NC(=O)[C@@H](NC(=O)OC)C(C)(C)C)C(C)(C)C,,,EC50,L10F V32I M46I I45M A71V I84V APV resistant,NL4-3,MT-4,0.66 µM
C1=Nc2ccccc2SN1,cytopathic effect / XTT,,EC50,RT-Y181C,IIIB,CEM + CEM-SS,>73 µM
CC(C)(C)NC(=O)[C@@H]1CN(Cc2cccnc2)CCN1C[C@@H](O)C[C@@H](Cc1ccccc1)C(=O)N[C@H]1c2ccccc2C[C@H]1O,RT activity,,EC50,,BRU,MT-2,0.0287 µM
CO[C@H]1/C=C/O[C@@]2(C)Oc3c(C)c(O)c4c(c3C2=O)C(=O)C(SCCOC(=O)CCCC(=O)OC[C@@H]2O[C@H](n3cc(C)c(=O)[nH]c3=O)C[C@H]2N=[N+]=[N-])=C(NC(=O)/C(C)=C\C=C\[C@H](C)[C@H](O)[C@@H](C)[C@@H](O)[C@@H](C)[C@H](OC(C)=O)[C@@H]1C)C4=O,p24,,EC50,,IIIB,C8166,0.07 µM
Fc1cccc(F)c1C1SCc2nc3ccc(C(F)(F)F)cc3n21,cytopathic effect / MTT,,EC50,,IIIB,MT-4,>351 µM
Cn1cc(N)cc1C(=O)Nc1cc(C(=O)Nc2ccc3cc(S(=O)(=O)O)cc(S(=O)(=O)O)c3c2)n(C)c1,cytopathic effect / XTT,,EC50,,BaL,PBMC,1.1 µM
c1cc(CN2CCCNCCNCCCNCC2)ccc1CN1CCCNCCNCCCNCC1,p24,,EC50,,SW20 CLADE C R5X4,PBMC,<0.5 µM
Cc1cccc(-n2nnnc2SCC(=O)Nc2ccccc2[N+](=O)[O-])c1C,p24,10% FBS,EC50,,,MT-4,<0.063 µM
Cc1cn([C@H]2C[C@H](N=[N+]=[N-])[C@@H](CO)O2)c(=O)[nH]c1=O,RT activity,,EC50,,LAI,CEM + CEM-SS,0.012 µM
CO[C@H]1/C=C/O[C@@]2(C)Oc3c(C)c(O)c4c(c3C2=O)C(=O)C(SCCOC(=O)CCCC(=O)OC[C@@H]2O[C@H](n3cc(C)c(=O)[nH]c3=O)C[C@H]2N=[N+]=[N-])=C(NC(=O)/C(C)=C\C=C\[C@H](C)[C@@H]2OC(C)(C)O[C@@H]([C@@H](C)[C@H](OC(C)=O)[C@@H]1C)[C@@H]2C)C4=O,p24,,EC50,,IIIB,C8166,0.04 µM
Cc1cc(Br)cc(C)c1Oc1ncc(NC(=O)C(F)(F)F)c(Nc2ccc(C#N)cc2)n1,MTT,,EC50,,RES056,MT-4,10.62 µM
Fc1cccc(F)c1[C@@H]1SCc2nc3ccccc3n21,cytopathic effect / MTT,,EC50,,IIIB,MT-4,0.7 µg/mL
CCc1cc(NCc2nc3c(Cl)ccc(Cl)c3o2)c(=O)[nH]c1C,p24,,EC50,RT-K10D K103N,NL4-3,MT-4,>3 µM
Nc1ccn([C@H]2CC[C@@H](CO)O2)c(=O)n1,p24,,EC90,,IIIB,PBMC,0.08 µM
COC(=O)[C@H](C)NP(=O)(OC[C@@H]1C=C[C@H](n2cc(C)c(=O)[nH]c2=O)O1)Oc1ccc(Br)cc1,RT activity,,EC50,,NL4-3,PBMC,0.02 µM
CC(C)(C)OC(=O)N[C@@H](Cc1ccccc1)[C@H](O)CNC[C@@H](O)[C@H](Cc1ccc(OCC(=O)N2CCOCC2)cc1)NC(=O)OC(C)(C)C,,,EC50,,RF,MT-2,0.24 µM
Nc1nc(=O)n([C@@H]2CO[C@H](CO)S2)cc1F,p24,,EC50,,IIIB,Jurkat cells,3.5 µM
Cc1cn([C@H]2C=C[C@@H](COC(=O)CNC(=O)C(=O)/C=C(\O)c3cccn3Cc3ccc(F)cc3)O2)c(=O)[nH]c1=O,RT activity,,EC50,,BaL,PBMC,0.32 µM
Fc1cccc(F)c1C1SCc2nc3ccccc3n21,cytopathic effect / MTT,,EC50,,IIIB,MT-4,0.6 µM
COC(=O)N[C@H](C(=O)N[C@@H](Cc1ccccc1)[C@@H](O)CN(Cc1ccc(-c2ccccn2)cc1)NC(=O)[C@@H](NC(=O)OC)C(C)(C)C)C(C)(C)C,,,EC50,,NL4-3,MT-2,0.00158 µM
NS(=O)(=O)c1ccc(NC(=O)CSc2nnnn2-c2cc(Cl)ccc2Cl)c(Cl)c1,p24,50% human serum,EC50,,,MT-4,<0.125 µM
Cc1cccc2nc3n(c12)C(c1c(F)cccc1F)SC3,cytopathic effect / MTT,,EC50,,IIIB,MT-4,3 µM
CC(C)(C)NC(=O)[C@@H]1CN(Cc2cccnc2)CCN1C[C@@H](O)C[C@@H](Cc1ccccc1)C(=O)N[C@H]1c2ccccc2C[C@H]1O,cytopathic effect,,EC50,PR-V82A,RF/41-D2-(PR-V82A) PI-resistant,MT-2,0.028 µM
O=c1[nH]cnc2c1ncn2[C@H]1CC[C@@H](CO)O1,RT activity,,EC50,,LAV,PBMC,0.46 µM
COc1ccc(S(=O)(=O)N(CC(C)C)C[C@@H](O)[C@H](Cc2ccccc2)NC(=O)O[C@H]2CO[C@H]3OCC(F)(F)[C@H]32)cc1,,,EC50,L10F M46I I54V V82A LPV resistant,NL4-3,MT-4,0.03 µM
CC(=O)Nc1cnc(Oc2c(C)cc(C=O)cc2C)nc1Nc1ccc(C#N)cc1,MTT,,EC50,,RES056,MT-4,>237 µM
Cc1cn([C@H]2C=C[C@@H](COC(=O)CCNC(=O)C(=O)/C=C(\O)c3cc(OCc4ccccc4)cc(OCc4ccccc4)c3)O2)c(=O)[nH]c1=O,RT activity,,EC50,,LAI,CEM + CEM-SS,5.6 µM
CNc1ccc(Cl)cc1S(=O)(=O)c1ccccc1[N+](=O)[O-],XTT,,EC50,,SK1,CEM + CEM-SS,0.4 µM
CC(C)CN(C[C@@H](O)[C@H](Cc1ccccc1)NC(=O)O[C@H]1CCOC1)S(=O)(=O)c1ccc(N)cc1,RT activity,,EC50,,BRU,MT-2,0.0398 µM
Cc1cn([C@H]2C[C@H](N=[N+]=[N-])[C@@H](CO)O2)c(=O)[nH]c1=O,cytopathic effect / XTT,,EC50,,IIIB,U-937,0.003 µM
Cc1cn([C@H]2C[C@H](N=[N+]=[N-])[C@@H](CO)O2)c(=O)[nH]c1=O,,,EC50,,clinical isolate 1(MOKW WT R5),PBMC,0.016 µM
O=C(CSc1nnnn1-c1cc(F)ccc1Cl)Nc1ccccc1[N+](=O)[O-],p24,50% human serum,EC50,,,MT-4,<0.25 µM
CO[C@H]1/C=C/O[C@@]2(C)Oc3c(C)c(O)c4c(c3C2=O)C(=O)C(SCCOC(=O)CCC(=O)OC[C@H]2O[C@@H](n3cc(C)c(=O)[nH]c3=O)CC2O)=C(NC(=O)/C(C)=C\C=C\[C@H](C)[C@H](O)[C@@H](C)[C@@H](O)[C@@H](C)[C@H](OC(C)=O)[C@@H]1C)C4=O,p24,,EC90,,IIIB,C8166,29 µM

The first 4 rows once more:

CCc1c(Sc2ccccn2)n(COCc2ccccc2)c(=O)[nH]c1=O ; method: cytopathic effect / XTT ; read-out: EC50 ; changes: RT-D67N K70R L100I T215Y K219Q ; strain or isolate: 4XAZT+L100I (RT D67N K70R L100I T215Y K219Q) ; cells: CEM + CEM-SS ; result: 0.018 µM
Cc1cn([C@H]2C[C@H](N=[N+]=[N-])[C@@H](CO)O2)c(=O)[nH]c1=O ; method: p24 ; read-out: EC90 ; strain or isolate: IIIB ; cells: H9 ; result: 1.575 µM
Cc1cc(C)c(-n2nnnc2SCC(=O)Nc2ccc(C(N)=O)cc2Cl)c(C)c1 ; method: p24 ; conditions: 50% human serum ; read-out: EC50 ; cells: MT-4 ; result: <0.016 µM
Cc1cccc(C)c1Oc1ccnc(Nc2ccc(C#N)cc2)n1 ; method: MTT ; read-out: EC50 ; changes: F227L + V106A ; strain or isolate: IIIB ; cells: MT-4 ; result: ≥1.37 µM